Compound potency records, mixed from different reports. Data source: NIAID ChemDB in PubChem.

All rows: enzyme or target tests; agent: HIV-1; target: Protease; method: HPLC; endpoint: IC50

Neighbouring rows are from separate reports. ICn is the concentration giving n% inhibition. An empty or dashed field is not shown.

compound	conditions	strain	value
CC(C)[C@H](NC(=O)c1ccc2ccccc2n1)C(=O)N[C@@H](Cc1ccccc1)[C@H](O)CNC[C@@H](O)[C@H](Cc1ccccc1)NC(=O)OC(C)(C)C	pH 5.5	-	<10 µM
C=C(C)C(O)Cc1c(O)c(CC=C(C)C)c2occ(-c3ccc(O)cc3O)c(=O)c2c1O	-	-	4.5 µM
COc1cc(O)cc(O)c1C(=O)[C@@H]1[C@H](CC=C(C)C)C(C)=CC[C@H]1c1ccc(O)cc1	-	-	>100 µM
CC(C)C[C@@H](C=O)NC(=O)[C@H](CO)NC(=O)[C@H](Cc1ccc(O)cc1)NC(=O)[C@H](CCC(=O)O)NC(=O)[C@H](CC(C)C)NC(=O)[C@@H](N)CC(C)C	-	-	0.015 µM
Cc1c(O)cccc1C(=O)N[C@@H](CC(C)C)C(=O)N(c1ccccc1)N(CCO)C(=O)[C@@H]1CCCN1C(=O)OC(C)(C)C	-	-	85 µM
CC(C)C[C@H](NC(=O)[C@@H](NC(=O)CCCCCCCCCCCCCCC(=O)N[C@@H](CC(N)=O)C(=O)N[C@@H](CCc1ccccc1)C(=O)O)C(C)O)C(=O)N[C@@H](Cc1ccc(-c2ccccc2)cc1)C(N)=O	-	-	0.64 µM
O=C(/C=C/c1ccc(O)c2c1[C@H](C(=O)O)[C@@H](c1ccc(O)c(O)c1)O2)O[C@H](Cc1ccc(O)c(O)c1)C(=O)O	-	-	>100 µM
O=C(OC1C(OC(=O)c2cc(O)c(O)c(O)c2Oc2cc3c(c(O)c2O)-c2c(cc(O)c(O)c2O)C(=O)OC2C(CC3=O)C(O)OC3COC(=O)c4cc(O)c(O)c(O)c4-c4c(cc(O)c(O)c4O)C(=O)OC32)C(O)OC2COC(=O)c3cc(O)c(O)c(O)c3-c3c(cc(O)c(O)c3O)C(=O)OC21)c1cc(O)c(O)c(O)c1	-	-	0.9 µM
COC(=O)[C@H](Cc1ccccc1)NC(=O)[C@H](CCC(=O)Nc1ccn([C@H]2CS[C@@H](CO)O2)c(=O)n1)NC(=O)C[C@H](O)C(CC(C)C)NC(=O)[C@@H](NC(=O)[C@H](Cc1c[nH]c2ccccc12)NC(C)=O)C(C)C	-	-	0.02 µM
CC(C)=CCc1c2c(c(O)c3c(=O)c(-c4ccc(O)cc4O)coc13)C=CC(C)(C)O2	-	-	3.5 µM
CSCC[C@H](NC(=O)CCCCCCCCCCCCCCC(=O)N[C@@H](CC(N)=O)C(=O)N[C@@H](CC1CCCCC1)C(=O)O)C(=O)N[C@@H](CC(C)C)C(=O)N[C@@H](Cc1ccccc1)C(N)=O	-	-	0.5 µM
CC(C)C[C@H](NC(=O)[C@H](Cc1ccccc1)NC(=O)C[C@H](O)[C@H](Cc1ccccc1)NC(=O)OC(C)(C)C)C(=O)N[C@@H](Cc1ccccc1)C(=O)Nc1ccn([C@H]2CS[C@@H](CO)O2)c(=O)n1	-	-	30 µM
Oc1cc(O)c2c(c1)O[C@H](c1ccc(O)c(O)c1)[C@H](O)C2c1c(O)cc(O)c2c1O[C@H](c1cc(O)c(O)c(O)c1)[C@H](O)C2	-	IIIB	>100 µg/mL
CC(C)C[C@H](NC(=O)C(NC(=O)[C@@H](N)C(C)C)c1cc(O)cc(O)c1)C(=O)N[C@@H](Cc1ccccc1)C(=O)C(=O)N[C@H](C(=O)N[C@H](C(=O)N[C@@H](CC(=O)O)C(=O)O)C(C)C)C(C)C	-	-	0.037 µM
Oc1cc(O)c2c(c1)O[C@H](c1cc(O)c(O)c(O)c1)[C@H](O)C2	-	IIIB	>100 µg/mL
CC(C)(C)OC(=O)N[C@@H](CC1CCCCC1)[C@@H](O)CC(=O)N[C@@H](CC(C)(C)C(=O)O)C(=O)NCCCc1ccccc1	-	-	0.0094 µM
CC(C)(C)OC(=O)N[C@@H](Cc1ccccc1)[C@H](O)CNC[C@@H](O)[C@H](Cc1ccccc1)NC(=O)C1NC(=O)OC1(C)C	pH 5.5	-	<10 µM
CCCC[C@@H](CN[C@@H](CCC(N)=O)C(=O)N[C@@H](CCCN=C(N)N)C(N)=O)NC(=O)[C@H](CCCC)NC(=O)C(NC(=O)C(NC(C)=O)[C@@H](C)O)[C@@H](C)CC	-	-	<2.17 µM
CC[C@H](C)[C@H](NC(=O)[C@@H](NC(=O)CCCCCCCCCCCCCCC(=O)N[C@@H](CCSC)C(=O)N[C@@H](Cc1ccccc1)C(=O)O)C(C)O)C(=O)N[C@@H](Cc1ccccc1)C(N)=O	-	-	1.67 µM
CC(C)[C@H](NC(=O)OCc1ccccc1)C(=O)N(C)[C@@H](Cc1ccccc1)[C@H](O)CNC[C@@H](O)[C@H](Cc1ccccc1)NC(=O)OC(C)(C)C	pH 5.5	-	<10 µM
CSCC[C@H](NC(=O)CCCCCCCCCCCCCCC(=O)N[C@H](C(=O)N[C@@H](CC(C)C)C(=O)N[C@H](C(N)=O)C1CCCCC1)C(C)O)C(=O)N[C@@H](Cc1ccccc1)C(=O)O	-	-	0.67 µM
COC(=O)[C@H](Cc1ccccc1)NC(=O)[C@H](CCC(=O)Nc1ccn([C@H]2CS[C@@H](CO[Si](c3ccccc3)(c3ccccc3)C(C)(C)C)O2)c(=O)n1)NC(=O)C[C@H](O)C(CC(C)C)NC(=O)[C@@H](NC(=O)[C@H](Cc1c[nH]c2ccccc12)NC(C)=O)C(C)C	-	-	0.06 µM
Cc1c(O)cccc1C(=O)N[C@@H](CC(C)C)C(=O)N(Cc1ccccc1)N(CO)C(=O)[C@@H]1CCCN1C(=O)OC(C)(C)C	-	-	23 µM
CC(C)C[C@H](NC(=O)[C@H](Cc1ccccc1)NC(=O)C[C@H](O)[C@H](Cc1ccccc1)NC(=O)OC(C)(C)C)C(=O)N[C@@H](Cc1ccccc1)C(=O)Nc1ccn([C@H]2CS[C@@H](CO[Si](c3ccccc3)(c3ccccc3)C(C)(C)C)O2)c(=O)n1	-	-	30 µM
CC(C)(C)OC(=O)N[C@@H](Cc1ccccc1)[C@H](O)CNC[C@@H](O)[C@H](Cc1ccccc1)NC(=O)OC(C)(C)Cc1ccccc1	pH 5.5	-	<10 µM
CC(O)[C@H](NC(=O)CCCCCCCCCCCCCCC(=O)N[C@@H](Cc1ccc(N)cc1)C(=O)N[C@@H](Cc1ccccc1)C(=O)O)C(=O)N[C@H](C(=O)N[C@@H](Cc1ccccc1)C(N)=O)C1CCCCC1	-	-	0.71 µM
CC(C)C[C@H](NC(=O)[C@@H](N)CC(C)C)C(=O)N[C@@H](CCC(=O)O)C(=O)N[C@H](C=O)Cc1ccc(O)cc1	-	-	5.1 µM
CC(C)C[C@H](N)C(=O)N[C@H](C(=O)N[C@@H](Cc1ccccc1)[C@H](O)CNC[C@@H](O)[C@H](Cc1ccccc1)NC(=O)OC(C)(C)C)C(C)C	pH 5.5	-	<10 µM
CC(C)=CCc1c(O)c(CC=C(C)C)c2occ(-c3ccc(O)cc3)c(=O)c2c1O	-	-	0.5 µM
CC(C)(C)OC(=O)N[C@@H](Cc1ccccc1)[C@H](O)CNC[C@@H](O)[C@H](Cc1ccccc1)NC(=O)OC(C)(C)[C@H](O)CO	pH 5.5	-	<10 µM
C=C(C)C(O)Cc1c(O)c(CC=C(C)C)c(O)c2c(=O)c(-c3ccc(O)cc3O)coc12	-	-	2.5 µM
CC(O)[C@H](NC(=O)CCCCCCCCCCCCCCC(=O)N[C@@H](CS(C)(=O)=O)C(=O)N[C@@H](Cc1ccccc1)C(=O)O)C(=O)N[C@H](C(=O)N[C@@H](Cc1ccccc1)C(N)=O)C1CCCCC1	-	-	0.58 µM
CSCC[C@H](NC(=O)c1cccc(O)c1C)C(=O)N(c1ccccc1)N(CCO)C(=O)[C@@H]1CCCN1C(=O)OC(C)(C)C	-	-	275 µM
COc1cc(O)cc2c1C[C@@H](O)[C@@H](c1cc(O)c(OC)c(O)c1)O2	-	IIIB	>100 µg/mL
CC[C@H](C)[C@@H](C=O)NC(=O)[C@H](CO)NC(=O)[C@H](Cc1ccc(O)cc1)NC(=O)[C@H](CCC(=O)O)NC(=O)[C@@H](N)CC(C)C	-	-	0.55 µM
CC(C)[C@H](NC(=O)OCc1ccccc1)C(=O)N[C@@H](Cc1ccccc1)[C@H](O)CNC[C@H](O)[C@H](Cc1ccccc1)NC(=O)[C@@H](NC(=O)OCc1ccccc1)C(C)C	pH 5.5	-	<10 µM
Cc1c(O)cccc1C(=O)N[C@H](C(=O)N(c1ccccc1)N(CCO)C(=O)[C@@H]1CCCN1C(=O)OC(C)(C)C)[C@@H](C)O	-	-	205 µM
CC(C)C[C@H](NC(=O)[C@@H](NC(=O)CCCCCCCCCCCCCCC(=O)N[C@@H](Cc1ccc(N)cc1)C(=O)N[C@@H](Cc1ccccc1)C(=O)O)C(C)O)C(=O)N[C@H](C(N)=O)C1CCCCC1	-	-	0.9 µM
COc1cc(O)cc(O)c1C(=O)CCc1ccccc1	-	-	>100 µM
OC[C@H]1O[C@@H](Oc2cc(O)cc(O)c2)[C@H](O)[C@@H](O)[C@@H]1O	-	IIIB	<100 µg/mL
CC(C)C[C@H](NC(=O)[C@@H](NC(=O)CCCCCCCCCCCCCCC(=O)N[C@@H](CC(N)=O)C(=O)N[C@@H](CC1CCCCC1)C(=O)O)C(C)O)C(=O)N[C@@H](Cc1ccccc1)C(N)=O	-	-	3.7 µM

4 of the rows above, restated:

compound,conditions,strain,value
COc1cc(O)cc(O)c1C(=O)[C@@H]1[C@H](CC=C(C)C)C(C)=CC[C@H]1c1ccc(O)cc1,-,-,>100 µM
COc1cc(O)cc(O)c1C(=O)CCc1ccccc1,-,-,>100 µM
CSCC[C@H](NC(=O)c1cccc(O)c1C)C(=O)N(c1ccccc1)N(CCO)C(=O)[C@@H]1CCCN1C(=O)OC(C)(C)C,-,-,275 µM
CC(C)[C@H](NC(=O)OCc1ccccc1)C(=O)N(C)[C@@H](Cc1ccccc1)[C@H](O)CNC[C@@H](O)[C@H](Cc1ccccc1)NC(=O)OC(C)(C)C,pH 5.5,-,<10 µM